Results of unrelated studies side by side (data: NIAID ChemDB).

Common to all: host cell toxicity; cells: HFF; read-out: CC50

Lines come from different laboratories, so protocols vary. CCn: concentration that lowers growth or viability of the cells by n%. Blank or dashed fields: not listed here.

smiles,method,result
CN(C)c1nc2cc(Cl)c(Cl)cc2n1COCCO,visual reading,>100 µM
O=c1[nH]c(=O)n([C@H]2C[C@H](O)[C@@H](CO)O2)cc1C(O)C(Br)Br,-,>232 µM
Nc1nc(NC2CC2)c2ncn(C=C3CC3CO)c2n1,neutral red,327 µM
C[C@H]1O[C@H](n2c(Br)nc3cc(Cl)c(Cl)cc32)[C@@H](O)[C@H]1O,visual reading,50 µM
CSc1nc2sncc2[nH]1,visual reading,32 µM
CCCSc1nc(N)nc2c1ncn2/C=C1/C[C@@H]1CO,-,>343 µM
CC(C)c1ccc(O)c(O)c(=O)c1,neutral red,6.7 µM
CCCSc1nc(N)nc2c1ncn2/C=C1/C[C@@H]1CO,-,>343 µM
CC(=O)OCC(CO)OCn1cnc2c(=O)[nH]c(N)nc21,-,>70 µg/mL
Nc1cc2c(=O)c(C(=O)O)cn(C3CC3)c2cc1N1CCN(c2cnccn2)CC1,MTT,100.3 µM
Cc1cc(C)c(OC(=O)c2ccc(Cl)cc2)c(=O)c(C)c1,neutral red,33.3 µM
CN(C)c1nc2c(Cl)c(Cl)ccc2n1COC(CO)CO,visual reading,>100 µM
OC[C@H]1O[C@@H](n2c(Br)nc3cc(Cl)c(Cl)cc32)[C@H](O)[C@@H]1O,-,184 µM
Nc1nc(NC2CC2)c2ncn(/C=C3/C[C@@H]3CO)c2n1,-,367 µM
CC(=O)N[C@H]1C[C@@H](n2cnc3c(N)ncnc32)[C@H](O)[C@@H]1O,-,>100 µg/mL
Nc1ncnc2c1ncn2[C@H]1C[C@]12C[C@H]2CO,-,>100 µM
Cn1cc(C(=O)NCc2ccc(Cl)cc2)c(=O)c2cc(CN3CCOCC3)ccc21,neutral red,>24 µM
COC(c1cn([C@H]2C[C@H](O)[C@@H](CO)O2)c(=O)[nH]c1=O)C(Br)I,-,>204 µM
OCC(CO)OCn1c(=S)[nH]c2cc(Cl)c(Cl)cc21,visual reading,>100 µM
Nc1ncnc2c1ncn2[C@H]1C[C@@]12C[C@@H]2CO,-,>100 µM
COC(=O)C(C)NP(=O)(OC[C@@H]1C/C1=C/n1cc(N)c(=O)[nH]c1=O)Oc1ccccc1,-,100 µM
COC(=O)[C@H](C)NP(=O)(OC[C@H]1C/C1=C/n1cnc2c(OC)nc(N)nc21)Oc1ccccc1,neutral red,34 µM
CC(=O)n1c(Cl)c([C@@H]2O[C@H](CO)[C@@H](O)[C@H]2O)c2cc(Cl)c(Cl)cc21,-,>100 µM
Cc1ccc(CNC(=O)[C@@H](NC(=O)[C@H](CCc2ccccc2)NC(=O)C(NC(=O)c2cnc(C)cn2)C(C)(C)C)C(C)C)cc1,resazurin,2.9 µM
OC[C@H]1O[C@@H](n2c(SCc3ccccc3)nc3sncc32)C[C@@H]1O,visual reading,2.1 µM
Cc1ccc(CNC(=O)[C@H](CC(C)C)NC(=O)[C@H](CCc2ccccc2)NC(=O)c2cnc(C)cn2)cc1,resazurin,35 µM
OCCOCn1c(Cl)nc2c(Cl)cc(Cl)cc21,visual reading,>100 µM
CCCCCCCCCCCCCCCCOCCCOP(=O)(O)CCCOCn1cnc2c(N)nc(N)nc21,-,54.3 µM
CSc1nc2sncc2n1[C@H]1C[C@H](O)[C@@H](CO)O1,visual reading,15 µM
Cc1ccc(CNC(=O)[C@@H](NC(=O)[C@H](CCc2ccccc2)NC(=O)[C@H](CCc2ccccc2)N(C)C)C(C)C)cc1,resazurin,14 µM
Nc1nc(N)c2ncn(COCCCP(=O)(O)O)c2n1,-,>300 µM
COc1ccccc1N1CCN(c2cc3c(cc2N)c(=O)c(C(=O)O)cn3C2CC2)CC1,MTT,300.8 µM
COc1nc(N)nc2c1ncn2C=C1CC1CO,neutral red,>404 µM
Nc1cc2c(=O)c(C(=O)O)cn(C3CC3)c2nc1N1CCN(c2ccccn2)CC1,MTT,126.5 µM
COC(c1cn([C@H]2C[C@H](O)[C@@H](CO)O2)c(=O)[nH]c1=O)C(Cl)I,-,>214 µM
Nc1ncnc2c1ncn2[C@H]1C[C@@]12C[C@H]2CO,-,>100 µM
CC(C)=CCc1ccc(O)c(=O)cc1C(C)C,MTT,>100 µM
Nc1nc2c(ncn2[C@H]2C[C@]23C[C@H]3CO)c(=O)[nH]1,-,>100 µM
Nc1nc(NCC2CC2)c2ncn(/C=C3/C[C@@H]3CO)c2n1,-,>349 µM
C#CCNc1nc(N)nc2c1ncn2/C=C1/C[C@@H]1CO,-,>370 µM
Nc1nc2ncn(/C=C3/C(F)C3(CO)CO)c2c(=O)[nH]1,-,>100 µM
OCC1OC(n2c(Br)cc3cc(Cl)c(Cl)cc32)C(O)C1O,visual reading,100 µM
Cc1ccc(CNC(=O)[C@H](CCc2ccccc2)NC(=O)[C@H](CCc2ccccc2)NC(=O)[C@@H](N)Cc2ccncc2)cc1,resazurin,68 µM
CN(C)n1cc(C(=O)O)c(=O)c2cc(N)c(N3CCN(c4ccccn4)CC3)cc21,MTT,365.8 µM
CC(C)Nc1nc2cc(Cl)c(Cl)cc2n1[C@H]1O[C@H](CO)[C@H](O)[C@@H]1O,visual reading,>100 µM
Nc1ncnc2c1ncn2/C=C1/C[C@H]1CO,neutral red,>462 µM
CC(=O)NC(CCc1ccc(Cl)c(Cl)c1)c1cccc(O)c(=O)c1,neutral red,8 µM
CCCCCSc1nc(N)nc2c1ncn2/C=C1/C[C@@H]1CO,-,>313 µM
Nc1nc2c(ncn2COCCO)c(=O)[nH]1,neutral red,>405 µM
OCCOCn1cnc2cc(Cl)c(Cl)cc21,visual reading,>100 µM
O[C@@H]1[C@H](O)[C@H](O)CO[C@H]1n1c(Br)nc2cc(Cl)c(Cl)cc21,-,117 µM
C[C@H]1O[C@H](n2c(Cl)nc3cc(Cl)c(Cl)cc32)[C@@H](O)[C@H]1O,visual reading,60 µM
Nc1nc(NC2CCCCC2)c2ncn(/C=C3/C[C@@H]3CO)c2n1,-,>318 µM
Nc1ncnc2c1ncn2[C@H]1C[C@]12C[C@@H]2CO,-,>100 µM
O=c1[nH]c(=O)n([C@H]2C[C@H](O)[C@@H](CO)O2)cc1C(O)C(Br)I,-,>210 µM
CCCCCSc1nc(N)nc2c1ncn2/C=C1/C[C@@H]1CO,-,>313 µM
CCCOc1nc(N)nc2c1ncn2/C=C1/C[C@@H]1CO,-,>363 µM
CN1CCN(n2cc(C(=O)NCc3ccc(Cl)cc3)c(=O)c3cc(CN4CCOCC4)ccc32)CC1,-,44.8 µM
Cn1c(Cl)c([C@@H]2O[C@H](CO)[C@@H](O)[C@H]2O)c2cc(Cl)c(Cl)cc21,-,>100 µM
COc1ccc(Cn2cc(C(N)=S)c3c(N)ncnc32)cc1,-,66 µM
CCCCCCCCCCCCCCCCOCCCOP(=O)(O)CCCOCn1cnc2c(=O)[nH]c(N)nc21,-,>100 µM
Cc1cccc(Cn2c(N)c(C#N)c3c(N)ncnc32)c1,visual reading,100 µM
CCCC(=O)OCC(COC(=O)CCC)OCn1cnc2c(=O)[nH]c(N)nc21,-,>100 µg/mL
COC(=O)[C@H](C)NP(=O)(OCC1C/C1=C/n1cnc2c(NC3CC3)nc(N)nc21)Oc1ccccc1,neutral red,126 µM
COC(=O)C(C)NP(=O)(OC[C@@H]1C/C1=C\n1cc(C)c(=O)[nH]c1=O)Oc1ccccc1,-,>100 µM
OCC(CO)OCn1c(SCc2ccccc2)nc2cc(Cl)c(Cl)cc21,visual reading,>100 µM
COC(=O)[C@H](C)NP(=O)(OC[C@H]1C/C1=C/n1cnc2c(OC)nc(N)nc21)Oc1ccccc1,neutral red,33.3 µM
CSc1nc2snc(C)c2n1[C@H]1C[C@H](O)[C@@H](CO)O1,visual reading,32 µM
COC(c1cn([C@H]2C[C@H](O)[C@@H](CO)O2)c(=O)[nH]c1=O)C(Cl)Cl,-,>282 µM
CSc1nc2sncc2n1[C@@H]1O[C@H](CO)[C@@H](O)[C@H]1O,visual reading,21 µM
CCCCCCCCCCCCCCCCOCCCOP(=O)(O)CCCOCn1cnc2c(NC3CC3)nc(N)nc21,-,>300 µM
O=C(NCc1ccc(Cl)cc1)c1cn2c3c(cc(CN4CCOCC4)cc3c1=O)OC(c1cccnc1)C2,neutral red,>19 µM
CSc1nc2sncc2n1[C@@H]1O[C@H](CO)[C@@H](O)[C@@H]1O,visual reading,21 µM
COc1ccc(Cn2cc(C(N)=S)c3c(N)ncnc32)cc1,-,49 µM